A mixed list of measured activities; the numbers were collected in NIAID ChemDB.

Shared fields: target-level tests; organism: HIV-1; protein: Reverse transcriptase; read-out: inhibition

Two numbers with a dash give a range or band. Blank or dashed fields: not listed here. Percent inhibition refers to the dose given; in toxicity tests it is the harm to the cells. Conditions beyond the fields shown may differ between rows.

smiles	strain or isolate	method	dose	result
CC(=O)N(/C=C/c1ccccc1Br)C(C)=O		ELISA	200 µg/mL	60.55%
COc1cc2oc3c4c(ccc3c(=O)c2c2c1C=CC(C)(C)O2)OCO4		RT activity / radiometric	200 µg/mL	36.42%
CC(C)=CC(=O)C[C@@H](C)[C@H]1CC[C@@]2(C)[C@@H]3CC[C@H]4C(C)(C)[C@@H](O)C[C@H](O)[C@@]45C[C@@]35CC[C@]12C		nucleotide incorporation / radiometric	200 µg/mL	61.5%
CC1(C)C=Cc2c(O)c(C(=O)c3ccccc3)c3c(c2O1)C=CC(C)(C)O3		RT activity / radiometric	200 µg/mL	36.42%
Cc1cn([C@H]2C[C@H](N=[N+]=[N-])[C@@H](CP(=O)(O)OP(=O)(O)OP(=O)(O)O)O2)c(=O)[nH]c1=O		fluorescence	10 µM	30–44%
CCN(/C=C/c1ccccc1Cl)C(C)=O		ELISA	200 µg/mL	59.1%
O=c1c(O)c(-c2ccc(O)c(O)c2)oc2cc(O)cc(O)c12		nucleotide incorporation	2 µg/mL	100%
CN=C1CN=C(c2ccc[nH]2)c2cc(Cl)ccc2N1		ELISA	25 µM	62%
CC(=O)N(/C=C/c1ccccc1Br)Cc1c(F)cccc1F		ELISA	200 µg/mL	57.33%
CCn1cnc2ncn([C@@H]3O[C@H](CO[Si](C)(C)C(C)(C)C)C4(OS(=O)(=O)C=C4N)[C@H]3O[Si](C)(C)C(C)(C)C)c2c1=O		ELISA	16 µM	58%
Nc1ccn([C@@H]2CS[C@H](COP(=O)(O)OP(=O)(O)C(F)(F)P(=O)(O)O)O2)c(=O)n1		fluorescence	0.5 µM	37.1%
CC[C@H](C)[C@H]1NC(=O)[C@@H](NC(=O)[C@@H](CC(C)C)N(C)S(=O)(=O)c2ccc(C)cc2)[C@@H](C)OC(=O)[C@H](Cc2ccc(OC)cc2)N(C)C(=O)[C@@H]2CCCN2C(=O)[C@H](CC(C)C)NC(=O)[C@H](C(C)C)OC(=O)C[C@@H]1O		nucleotide incorporation	0.1 µg/mL	~0%
Cc1cccn2c(NC3CCCC3)c(-c3ccccc3Cl)nc12		ELISA	50 µM	86.2%
CCN(/C=C/c1ccc(OC)cc1OC)C(C)=O		ELISA	200 µg/mL	34.73%
Cc1cccc2nc(-c3ccccc3Cl)c(NC3CCCC3)n12		ELISA	50 µM	88.7%
O=C(O)CP(=O)(O)O		ELISA	70 µM	0%
O=C(O)[C@H]1O[C@@H](Oc2cc3oc(-c4ccccc4)cc(=O)c3c(O)c2O)[C@H](O)[C@@H](O)[C@@H]1O	LAV		500 µg/mL	99.14%
Cc1cn([C@H]2C[C@H](N=[N+]=[N-])[C@@H](CP(=O)(O)OP(=O)(O)C(F)(F)P(=O)(O)O)O2)c(=O)[nH]c1=O		fluorescence	10 µM	25%
Cc1cn([C@H]2C[C@H](N)[C@@H](COP([O-])(=S)OP(=O)(O)C(F)(F)P(=O)(O)O)O2)c(=O)[nH]c1=O		fluorescence	0.5 µM	13.2%
Cc1cn([C@H]2CC[C@@H](CC(F)(F)P(=O)(O)OP(=O)(O)C(F)(F)P(=O)(O)O)O2)c(=O)[nH]c1=O		fluorescence	10 µM	41–58%
Nc1nc2c(ncn2[C@H]2C=C[C@@H](COP([O-])(=S)OP(=O)(O)C(F)(F)P(=O)(O)O)C2)c(=O)[nH]1		fluorescence	10 µM	0%
Clc1ccccc1-c1nc2cccc(Cl)n2c1NC1CCCCC1		ELISA	50 µM	96.1%
COC(=O)C(=O)OC1(C(=O)O)C[C@@H](OC(=O)/C=C/c2ccc(O)c(O)c2)C(O)[C@H](OC(=O)/C=C/c2ccc(O)c(O)c2)C1	LAI		5 µg/mL	56%
N#Cc1cccc2nc(-c3ccccc3Cl)c(NC3CCCCC3)n12		ELISA	50 µM	95.3%
C=C(CC[C@@H](C)[C@H]1CC[C@@]2(C)[C@@H]3CC[C@H]4[C@](C)(C(=O)O)[C@@H](O)CC(=O)[C@@]45C[C@@]35CC[C@]12C)C(C)C		nucleotide incorporation / radiometric	200 µg/mL	80.1%
CC(C)/C=C/c1cc(/C=C/C(=O)O)cc(/C=C/C(C)C)c1		RT activity / ELISA	200 µg/mL	41.59%
Cc1cn([C@H]2C[C@H](N=[N+]=[N-])[C@@H](CP(=O)(O)OP(=O)(O)C(Cl)(Cl)P(=O)(O)O)O2)c(=O)[nH]c1=O		fluorescence	10 µM	30–44%
O=C(c1cc(O)cc(O)c1)c1c(O)cc(O)cc1O		RT activity / radiometric	200 µg/mL	95.68%
O=C1C[C@@H](c2ccc(O)cc2)Oc2cc(O)cc(O)c21		RT activity / ELISA	200 µg/mL	44.22%
Nc1nc(Cl)c2ncn([C@H]3C=C[C@@H](COP(=O)(O)OP(=O)(O)OP(=O)(O)O)C3)c2n1		fluorescence	10 µM	12.3%
CCCN1C(=O)c2cccnc2Oc2ccccc21		HPLC	1 µM	31%
COc1cccc2c1cc([N+](=O)[O-])c1c(C(=O)O)cc3c(c12)OCO3	LAV		500 µg/mL	52.29%
Nc1ccn([C@@H]2CS[C@H](COP([O-])(=S)OP(=O)(O)C(F)(F)P(=O)(O)O)O2)c(=O)n1		fluorescence	10 µM	0%
CC(C)=CC(=O)C[C@@H](C)[C@H]1CC[C@@]2(C)[C@@H]3CC[C@H]4[C@](C)(C(=O)O)[C@@H](O)CC[C@@]45C[C@@]35CC[C@]12C		nucleotide incorporation / radiometric	200 µg/mL	92.3%
CC1(C)C=Cc2c(c(O)cc3oc4cc(O)cc(O)c4c(=O)c23)O1		RT activity / radiometric	200 µg/mL	62.06%
Cc1ccc2nc(-c3ccccc3Cl)c(NC3CCCCC3)n2c1		ELISA	50 µM	89.2%
COc1cc(O)c2c(=O)cc(-c3c(OC)c(OC)c(OC)c(OC)c3OC)oc2c1		nucleotide incorporation / radiometric	200 µg/mL	7.7%
COc1c(OC)c(O)c2c(=O)c(OC)c(-c3ccc(C)cc3)oc2c1OC		RT activity / ELISA	200 µg/mL	35.35%

For reference, 2 entries again:

smiles	strain or isolate	method	dose	result
CC[C@H](C)[C@H]1NC(=O)[C@@H](NC(=O)[C@@H](CC(C)C)N(C)S(=O)(=O)c2ccc(C)cc2)[C@@H](C)OC(=O)[C@H](Cc2ccc(OC)cc2)N(C)C(=O)[C@@H]2CCCN2C(=O)[C@H](CC(C)C)NC(=O)[C@H](C(C)C)OC(=O)C[C@@H]1O		nucleotide incorporation	0.1 µg/mL	~0%
Nc1ccn([C@@H]2CS[C@H](COP([O-])(=S)OP(=O)(O)C(F)(F)P(=O)(O)O)O2)c(=O)n1		fluorescence	10 µM	0%